Values from PubChem BioAssay AID504761 (Drosophila RNAi Screening Center, 2011)
The screen tested about 22,000 reagents; this is an unselected part of those that have a named target and a result. Over the whole deposit, 116 (0.52%) are marked active. 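Calls depend on retest data that are not deposited; infection was ranked per plate without normalising between plates; the unit of the infection score is not given.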 A number with no mark means an inactive call. The numbers tell different reagents against one gene apart. A plus sign joins genes that one reagent is predicted to hit. Further read-outs or replicates are left out here. Reagent sequences are not shown. Not given: the amount of reagent, the time to read-out.

Purpose: 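Fly genes whose silencing reduces dengue virus type 2 infection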 (primary screen)
System: D.Mel-2 cells from Drosophila
Knock-down reagent: long dsRNA against Drosophila genes
Treatment: infection with dengue virus type 2; dose and infection time not stated
Measured: 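Per well on two replicate plates, imaging gave the percent of cells positive for viral envelope protein, ranked by infection, and a nuclear count of cells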
Direction: infection score: higher = more virus-infected cells
Rule for the call: 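Low infection ranks in the two replicates (chance level up to 0.065) followed by a retest with a 1.5-fold or larger significant decrease, p below 0.05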
Meaning of the calls: active = confirmed: knock-down lowers infection; inactive = not picked or not confirmed

The opening 2 records, ahead of the listing:
no.	gene knocked down	reagent no.	infection score, replicate 1	infection score, replicate 2
1	Obp57c + Obp57b	1	15.1	11
2	Obp57c + Obp57b	2	1.17	2.88

The list itself, from the start:
no.	gene knocked down	reagent no.	infection score, replicate 1	infection score, replicate 2
1	Obp57c + Obp57b	1	15.1	11
2	Obp57c + Obp57b	2	1.17	2.88
3	CG10104	1	8.22	21.3
4	CG4612	1	17.9	11.9
5	zfh1	1	9.53	1.53
6	zfh1	2	6.33	9.77
7	CG12589	1	16.5	2.25
8	CG17191	1	2.14	14.4
9	CG17191	2	1.22	1.34
10	CG13126	1	5.33	5.66
11	CG13126	2	21.4	3.35
12	CG13870	1	1.71	2.41
13	CG42570	1	4	2.48
14	Akr1B	1	9.04	13
15	CG6421	1	16.6	13.9
16	CG6421	2	25.4	17
17	CRAT	1	8.46	9.66
18	CRAT	2	14	8.06
19	Mst84Dc	1	20.2	3.32
20	Pph13	1	1.89	18.8
21	Pph13	2		4.53
22	CG31832	1	1.97	1.32
23	CG31832	2	11	11.8
